## PSTVd loop 6 mutant pool in Nicotiana benthamiana

The pool varies loop 6 of the PSTVd intermediate strain in the pattern UNNNCGNNNG; wild type is UGACCGCGAG (upper and lower strand joined, each 5' to 3', the first 5 letters being the upper strand, closing pairs included).

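A pool of all variants was put on leaves of three Nicotiana benthamiana plants. Progeny were sequenced from the inoculated region (day 5), the margin of the inoculated leaf (day 10) and systemic leaves (day 12).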

Values are reads per thousand in the sample; higher means more abundant, 0 means not found.
Each value is the mean of three plants.
"Pool" is the share in the plasmid pool used as inoculum, on the same scale.
The inoculated region was read from the minus strand, the other sites from the plus strand.
Samples held 36,220 to 57,551 reads, so the smallest values rest on one or two reads.
For reference, wild type rose from 20.7 per thousand in the pool to 195, 198, 203 (inoculated region), 629, 591, 734 (leaf margin) and 942, 870, 868 (systemic leaves).
The authors trace changes outside the varied positions to PCR and sequencing errors or to mutation in the plant; presence does not show that a variant is infectious alone.

{"sequence": "UAUACGAAGG", "pool": "0.209", "inoculated region": 0.113, "leaf margin": 0.00920, "systemic leaves": 0}
{"sequence": "UAUACGUCCG", "pool": "0.235", "inoculated region": 0.100, "leaf margin": 0, "systemic leaves": 0}
{"sequence": "UAUCCGUCUG", "pool": "0.288", "inoculated region": 0.120, "leaf margin": 0, "systemic leaves": 0.00684}
{"sequence": "UAUCCGUGGG", "pool": "0.118", "inoculated region": 0.107, "leaf margin": 0.00920, "systemic leaves": 0}
{"sequence": "UCACCGAUAG", "pool": "0.248", "inoculated region": 0.126, "leaf margin": 0.0696, "systemic leaves": 0}
{"sequence": "UCAUCGAUAG", "pool": "0.222", "inoculated region": 0.0945, "leaf margin": 0.0866, "systemic leaves": 0}
{"sequence": "UCAUCGGGUG", "pool": "0.157", "inoculated region": 0.0420, "leaf margin": 0, "systemic leaves": 0}
{"sequence": "UCAUCGUGUG", "pool": "0.235", "inoculated region": 0.0893, "leaf margin": 0.00773, "systemic leaves": 0}
{"sequence": "UCCCCGUCAG", "pool": "0.458", "inoculated region": 0.101, "leaf margin": 0.0252, "systemic leaves": 0}
{"sequence": "UCCUCGAAUG", "pool": "0.327", "inoculated region": 0.113, "leaf margin": 0, "systemic leaves": 0}
{"sequence": "UCGUCGGCAG", "pool": "0.105", "inoculated region": 0.0771, "leaf margin": 0, "systemic leaves": 0.00684}
{"sequence": "UCUCCGAGUG", "pool": "0.157", "inoculated region": 0.0773, "leaf margin": 0.0155, "systemic leaves": 0}
{"sequence": "UCUUCGUUGG", "pool": "0.340", "inoculated region": 0.126, "leaf margin": 0.00841, "systemic leaves": 0}
{"sequence": "UGACCGCUUG", "pool": "0.471", "inoculated region": 0.281, "leaf margin": 0.695, "systemic leaves": 0.237}
{"sequence": "UGACCGGACG", "pool": "0.327", "inoculated region": 0.156, "leaf margin": 0.224, "systemic leaves": 0.0807}
{"sequence": "UGAGCGUCGG", "pool": "0.222", "inoculated region": 0.0590, "leaf margin": 0, "systemic leaves": 0}
{"sequence": "UGAUCUCGAG", "pool": "0.0131", "inoculated region": 0.00599, "leaf margin": 0, "systemic leaves": 0}
{"sequence": "UGCUCGUACG", "pool": "0.235", "inoculated region": 0.0938, "leaf margin": 0, "systemic leaves": 0}
{"sequence": "UGGACGUGGG", "pool": "0.261", "inoculated region": 0.149, "leaf margin": 0, "systemic leaves": 0}
{"sequence": "UUAACGGGCG", "pool": "0.157", "inoculated region": 3.78, "leaf margin": 1.26, "systemic leaves": 0.535}
{"sequence": "UUACCGAAGG", "pool": "0.131", "inoculated region": 0.126, "leaf margin": 0, "systemic leaves": 0}
{"sequence": "UUAGCGAGUG", "pool": "0.196", "inoculated region": 0.0591, "leaf margin": 0, "systemic leaves": 0}
{"sequence": "UUAUCGACGG", "pool": "0.248", "inoculated region": 0.0838, "leaf margin": 0.0169, "systemic leaves": 0}
{"sequence": "UUCCCGGGUG", "pool": "0.170", "inoculated region": 0.0777, "leaf margin": 0, "systemic leaves": 0}
{"sequence": "UUCGCGUAAG", "pool": "0.105", "inoculated region": 0.0769, "leaf margin": 0.00920, "systemic leaves": 0}
{"sequence": "UUCUCGGUGG", "pool": "0.431", "inoculated region": 0.0836, "leaf margin": 0.0168, "systemic leaves": 0}
{"sequence": "UUGGCGCUGG", "pool": "0.288", "inoculated region": 0.0956, "leaf margin": 0, "systemic leaves": 0}
{"sequence": "UUUACGGCGU", "pool": "0.0131", "inoculated region": 0, "leaf margin": 0, "systemic leaves": 0}
{"sequence": "UUUACGUUGG", "pool": "0.248", "inoculated region": 0.100, "leaf margin": 0, "systemic leaves": 0}
{"sequence": "UUUCCGAUAG", "pool": "0.314", "inoculated region": 0.0942, "leaf margin": 0.572, "systemic leaves": 0}

A selection of 2 entries from above:

| sequence | pool | inoculated region | leaf margin | systemic leaves |
|---|---|---|---|---|
| UGCUCGUACG | 0.235 | 0.0938 | 0 | 0 |
| UUGGCGCUGG | 0.288 | 0.0956 | 0 | 0 |

Data from the supplement of Wu et al. 2024, doi:10.1371/journal.ppat.1012142.